This is an account of results in article PMC11915811, “Conformational activation and disulfide exchange in HIV-1 Env induce cell-free lytic/fusogenic transformation and enhance infection” (Journal of Virology, 2025).

This experiment concerns the target HIV-1 JRFL wild-type Env on pseudovirus (HIV-1 (JRFL)) (UniProt Q75760).

In the case of “Soluble CD4 (from UniProt P01730 26-396) (domain or fragment)”, the cell-free lysis (p24 release, ELISA) of JRFL pseudovirus by fixed 1,000 nM sCD4 + serial dilutions of Trx1; EC50 of Trx1 worked out at 135 nM.
